A mixed list of measured activities; the numbers were collected in NIAID ChemDB.

Common to all: tests in culture

Two numbers with a dash give a range or band. ECn: concentration that inhibits the pathogen or its effect by n%. Inhibition is in % at the dose shown (toxicity tests: loss of growth or viability). An empty or dashed field is not shown. Lines come from different laboratories, so protocols vary.

| SMILES | strain | read-out | method | cell line | dose | organism | result |
|---|---|---|---|---|---|---|---|
| COc1cc(NCC2(CO)CCC2)nc(N)n1 | B/GIFU/2/73 | EC50 | plaque count | MDCK | - | Influenza B virus | 50–55 µM |
| N=C1c2ncn([C@@H]3O[C@H](CO)[C@@H](O)[C@H]3O)c2NCN1OCc1ccc(F)cc1 | TYPE A0/PR8/34 | EC50 | cytopathic effect | MDCK | - | Influenza virus | 100 µg/mL |
| Nc1nc(Cl)cc(NC2(CO)CCC2)n1 | B/GIFU/2/73 | EC50 | plaque count | MDCK | - | Influenza B virus | 220 µM |
| CCOC(=O)c1nc2ccc([N+](=O)[O-])cc2[nH]c1=O | Maryland B | EC50 | plaque count | BSC-1/HELA | - | Influenza virus | 40 µg/mL |
| CCC | USSR/3/85 (H3) | EC50 | - | MDCK | - | Influenza A virus | >500 µM |
| CCCC(CCC)C(NC(C)=O)C1CC(C(=O)O)CC1N=C(N)N | H1N1 A/Bayern/07/95 | EC50 | - | MDCK | - | Influenza A virus | 0.72 µM |
| Nc1ccn([C@@H]2C[C@H](CO)[C@@H](O)[C@H]2O)c(=O)n1 | - | EC50 | cytopathic effect | MDCK | - | Influenza C virus | 4.5 µg/mL |
| CCC(CC)(CO)CNc1cc(Cl)nc(N)n1 | B/GIFU/2/73 | EC50 | plaque count | MDCK | - | Influenza B virus | 120 µM |
| C/C=C\[C@@H]1C[C@H](C(=O)O)N[C@H]1[C@@H](NC(C)=O)[C@](C)(CCC)OC | H1N1 isolate C9C | EC50 | plaque count | MDCK | - | Influenza A virus | 1.25 µg/mL |
| NC12CC3CC(CC(C3)C1)C2 | B/LEE | inhibition | plaque count | CEF | 46.8 µg/mL | Influenza B virus | 0% |
| N=C1c2ncn([C@H]3C[C@H](O)[C@@H](CO)O3)c2NCN1OCc1cccc(F)c1 | TYPE A0/PR8/34 | EC50 | cytopathic effect | MDCK | - | Influenza virus | 320 µg/mL |
| Nc1nc(Cl)cc(NCC2(CCO)CCC2)n1 | B/GIFU/2/73 | EC50 | plaque count | MDCK | - | Influenza B virus | >120 µM |
| CC(N)C12CC3CC(CC(C3)C1)C2 | H3N2 A/NY/83/R6 | EC50 | ELISA | MDCK | - | Influenza A virus | 27.5 µg/mL |
| CCCC(CCC)C(NC(C)=O)C1C(N=C(N)N)CC(C(=O)O)C1O | Influenza A/Johannesburg/33/94 (H3N2) | EC50 | - | MDCK | - | Influenza A virus | 0.09 µM |
| CC(=O)N[C@H]1[C@H]([C@H](O)[C@H](O)CO)OC(C(=O)O)=C[C@@H]1N=C(N)N | Influenza A/Shandong/09/93 (H3N2) | EC50 | - | MDCK | - | Influenza A virus | 0.5 µM |
| Cn1cnc2c(ncn2[C@@H]2O[C@H](CO)[C@@H](O)[C@H]2O)c1=N | TYPE A0/PR8/34 | EC50 | cytopathic effect | MDCK | - | Influenza virus | 100 µg/mL |
| Nc1nc(Cl)c(N)c(NCC2(CO)CCC2)n1 | B/GIFU/2/73 | EC50 | plaque count | MDCK | - | Influenza B virus | 9.7–47 µM |
| Cc1ccc(CON2CNc3c(ncn3[C@@H]3O[C@H](CO)[C@@H](O)[C@H]3O)C2=N)cc1 | TYPE A0/PR8/34 | EC50 | cytopathic effect | MDCK | - | Influenza virus | 100 µg/mL |
| Nc1ncc(N)c(NCC2(CO)CC(CCc3ccccc3)C2)n1 | B/GIFU/2/73 | EC50 | plaque count | MDCK | - | Influenza B virus | 13–17 µM |
| Cc1cccc(CON2CNc3c(ncn3[C@@H]3O[C@H](CO)[C@@H](O)[C@H]3O)C2=N)c1 | TYPE A0/PR8/34 | EC50 | cytopathic effect | MDCK | - | Influenza virus | 100 µg/mL |
| Nc1nc2c(ccn2[C@@H]2C[C@H](CO)[C@@H](O)[C@@H]2O)c(=O)[nH]1 | Influenza A/Victoria/3/75 (H3N2) | MIC | - | - | - | Influenza A virus | >100 µg/mL |

The first 2 rows once more:

SMILES | strain | read-out | method | cell line | dose | organism | result
COc1cc(NCC2(CO)CCC2)nc(N)n1 | B/GIFU/2/73 | EC50 | plaque count | MDCK | - | Influenza B virus | 50–55 µM
N=C1c2ncn([C@@H]3O[C@H](CO)[C@@H](O)[C@H]3O)c2NCN1OCc1ccc(F)cc1 | TYPE A0/PR8/34 | EC50 | cytopathic effect | MDCK | - | Influenza virus | 100 µg/mL